Paper PMC9646764 (Nature Communications, 2022)

Molecular target: TcdB4.2 (full-length recombinant toxin B variant 4.2) (Clostridioides difficile)
Assay: BLI; as a1, KD calculated with the BLItz system software from the indicated concentrations (Supplementary Fig. 7); KD called estimated
Settings: both partners purified

B1: TFPI-Fc (human IgG-Fc-tagged TFPI without the GPI anchor) (Fc fusion)
chain: [sequence of about 80 residues not given]NANRIIKTTLQ[sequence of about 60 residues not given]PNGFQVDNYGTQLNAVNNSLTPQSTKVPSLF
notes: also called human TFPI; source: Expi293F, transfected, purified from culture medium as His-tagged protein
- Kd: ~227 nM
